Source: ChEMBL document CHEMBL1144877, “A comparison of phosphonothioic acids with phosphonic acids as phosphatase inhibitors” (2003)

Key:
[1] = target: T1, Alkaline phosphatase, tissue-nonspecific isozyme (Rattus norvegicus) (UniProt P08289); experiment: Inhibitory activity against Escherichia coli Alkaline Phosphatase; no inhibition
T1 sequence (whole entry): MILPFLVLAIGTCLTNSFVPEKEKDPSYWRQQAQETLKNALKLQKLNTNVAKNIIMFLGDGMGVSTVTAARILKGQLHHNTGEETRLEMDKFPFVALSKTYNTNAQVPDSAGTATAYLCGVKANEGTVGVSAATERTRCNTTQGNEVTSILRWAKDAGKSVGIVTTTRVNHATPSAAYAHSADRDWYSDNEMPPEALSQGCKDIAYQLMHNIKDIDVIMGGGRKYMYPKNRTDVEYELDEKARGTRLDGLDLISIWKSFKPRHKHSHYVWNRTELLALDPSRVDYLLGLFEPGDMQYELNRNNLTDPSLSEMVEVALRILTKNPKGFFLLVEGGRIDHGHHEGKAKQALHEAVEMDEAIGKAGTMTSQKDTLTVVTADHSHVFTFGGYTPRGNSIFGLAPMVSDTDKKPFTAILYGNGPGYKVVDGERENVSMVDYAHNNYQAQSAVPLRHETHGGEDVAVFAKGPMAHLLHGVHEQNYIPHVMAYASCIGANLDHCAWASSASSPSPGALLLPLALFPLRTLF

[2] = target: T2, Protein tyrosine phosphatase receptor type C-associated protein (Homo sapiens) (UniProt Q14761); experiment: Inhibitory activity against Tyrosine phosphatase from Yersinia (Yop protein); no inhibition
T2 sequence (whole entry): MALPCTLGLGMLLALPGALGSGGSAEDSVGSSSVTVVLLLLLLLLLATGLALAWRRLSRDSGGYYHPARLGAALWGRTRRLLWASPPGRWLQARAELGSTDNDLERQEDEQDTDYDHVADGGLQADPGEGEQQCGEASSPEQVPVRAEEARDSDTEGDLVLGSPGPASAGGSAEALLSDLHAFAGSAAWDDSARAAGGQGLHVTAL

SMILES	NI [1]	NI [2]
O=P(O)(O)Cc1ccccc1	inactive	inactive
COC(=O)CCCCCP(O)(O)=S	inactive	inactive
O=C(O)CCCCCP(O)(O)=S	inactive	–
O=C(O)CCCCCP(=O)(O)O	inactive	–
O=C(O)c1cccc2ccc(CP(O)(O)=S)cc12	inactive	–
O=C(O)c1cccc2ccc(CP(=O)(O)O)cc12	–	inactive

Calls of active or inactive are those of the source. The calls are words filed in the database; no cut-off is given here.
